Compound potency records, mixed from different reports. Data source: NIAID ChemDB in PubChem.

Common to all: whole-cell or culture tests; organism: Varicella zoster virus; measure: EC50

Blank or dashed fields: not listed here.

smiles	strain or isolate	cell line	method	value
Cc1cn([C@@H]2O[C@H](CO)[C@@H](O)[C@@H]2O)c(=O)[nH]c1=O	Kawaguchi acyclovir-resistant mutant A6		plaque count	0.0104 µg/mL
O=c1[nH]c(=S)n([C@@H]2O[C@H](CO)[C@@H](O)[C@@H]2O)cc1CCO	CAQU (TK+)	MRC-5	plaque count	>244.8 µM
CCCCCc1ccc(-c2cc3cn(C4C[C@H](F)[C@@H](CO)O4)c(=O)nc3o2)cc1	YS			>2 µM
O=c1[nH]c(=O)n([C@@H]2O[C@H](CO)[C@@H](O)[C@@H]2O)cc1/C=C/Br	Oka penciclovir-resistant/B	HEL	cytopathic effect	0.0005 µM
CC(NC(=S)Nc1ccc(NC(=O)c2nccc3ccccc23)cc1)c1cc2ccccc2o1	JAB1233	HFF	ELISA	0.16 µg/mL
O=c1[nH]c(=O)n([C@H]2C[C@H](O)[C@@H](CO)O2)cc1/C=C/Br	VEX411	HEF	cytopathic effect	0.01 µg/mL
Nc1nc(=S)n([C@@H]2O[C@H](CO)[C@@H](O)[C@@H]2O)cc1/C=C/Br	CAQU (TK+)	MRC-5	plaque count	46.2 µM
Nc1ncnc2c1ncn2C[C@@H](CO)OCP(=O)(O)O	Oka acyclovir-resistant	HEL	cytopathic effect	0.014 µM
O=C(O)CP(=O)(O)O	Kawaguchi		plaque count	4.5 µg/mL
CCc1cn([C@H]2C[C@H](O)[C@@H](CO)O2)c(=S)nc1N	CAQU (TK+)	MRC-5	plaque count	>288.6 µM
O=c1[nH]c(=O)n([C@H]2C[C@H](O)[C@@H](CO)O2)cc1I	Batson	HEF	plaque count	0.44 µg/mL
O=c1[nH]c(=S)n([C@@H]2O[C@H](CO)[C@@H](O)[C@@H]2O)cc1/C=C/c1ccccc1	HOSEN (TK+)	MRC-5	plaque count	8.5 µM
O=C(O)P(=O)(O)O	Clinical isolate VZV-27	HEL	cytopathic effect	81.5 µM
O=c1[nH]c(=O)n([C@H]2C[C@H](O)[C@@H](CO)O2)cc1/C=C/I	Batson	HEF	plaque count	0.0012 µg/mL
O=C(O)/C=C/c1cn([C@@H]2O[C@H](CO)[C@@H](O)[C@@H]2O)c(=S)[nH]c1=O	Kanno-Kohmura (TK-)	MRC-5	plaque count	>238.4 µM
Nc1nc2c(ncn2CCC(CO)CO)c(=O)[nH]1	Oka CF1742-resistant	HEL	cytopathic effect	65 µM
Nc1nc(F)nc2c1ncn2[C@@H]1C=C(CO)[C@@H](O)[C@H]1O	07/1 YS/R (TK-)	VERO	cytopathic effect	100 µg/mL
Nc1ccn(C[C@@H](CO)OCP(=O)(O)O)c(=O)n1	Oka PMEA-resistant	HEL	cytopathic effect	0.76 µM
CCCc1cn([C@H]2C[C@H](O)[C@@H](CO)O2)c(=S)nc1N	HOSEN (TK+)	MRC-5	plaque count	>277.4 µM
Cn1cc(C(=O)NCc2ccc(Cl)cc2)c(=O)c2cc(CN3CCOCC3)ccc21	SL varicella isolate	HFF	plaque count	0.1 µM
C=Cc1cn([C@H]2C[C@H](O)[C@@H](CO)O2)c(=S)[nH]c1=O	HOSEN (TK+)	MRC-5	plaque count	124.8 µM
Nc1nc2c(ncn2COCCO)c(=O)[nH]1	VEX411	HEF	cytopathic effect	0.4 µg/mL
O=C(NCc1ccc(Cl)cc1)c1c[nH]c2ccc(CCCO)cc2c1=O	GEI		plaque count	0.1 µM
O=c1[nH]c(=S)n([C@@H]2O[C@H](CO)[C@@H](O)[C@@H]2O)cc1/C=C/Br	HOSEN (TK+)	MRC-5	plaque count	5.3 µM

The last 2 rows once more:

smiles | strain or isolate | cell line | method | value
O=C(NCc1ccc(Cl)cc1)c1c[nH]c2ccc(CCCO)cc2c1=O | GEI |  | plaque count | 0.1 µM
O=c1[nH]c(=S)n([C@@H]2O[C@H](CO)[C@@H](O)[C@@H]2O)cc1/C=C/Br | HOSEN (TK+) | MRC-5 | plaque count | 5.3 µM

Rows are shuffled and stem from different studies. ECn is the concentration giving n% inhibition of infection, replication or growth.